System: ten-member panel of human carcinomas
Experiment: Cell proliferation assay, summary across the panel
Assay type: cell-based
Details: read-out: GI50 values; range across the ten-member panel

`CONCCCCc1ccc(N(CCCl)CCCl)cc1` showed a GI50 of 1100 to 4400 nM.
